Anti-infective test results gathered from many reports (values: NIAID ChemDB through PubChem).

Shared fields: growth or infection tests

An empty or dashed field is not shown. Neighbouring rows are from separate reports. A number after MIC or MFC names an inhibition level or a share of isolates. Percent inhibition refers to the dose given; in toxicity tests it is the harm to the cells. Two numbers with a dash give a range or band. ECn: concentration that inhibits the pathogen or its effect by n%.

compound,conditions,tested at,cells,measure,method,species,strain,value
CC(=O)N[C@H]1[C@H]([C@H](O)[C@H](O)CO)OC(C(=O)O)=C[C@@H]1N=C(N)N,,,MDCK,EC50,,Influenza B virus,Panama/45/90,1.3 µM
CC(C)(O)c1cn(-c2ccccc2)nn1,,2048 µg/mL,,inhibition,broth dilution,Candida parapsilosis,URM 4984,0%
COc1ccc(-n2c(C(=O)NCc3cccc(C(N)=O)c3)c3n(c2=O)CCN(C(=O)c2ccc(Cl)c(Cl)c2)C3)cc1,,,HepG2.117,EC50,PCR,Hepatitis B virus,,>5 µM
Oc1cccc(C=Nc2ccccc2O)c1,,,,MIC99,,Cryptococcus gattii,547/OTTI-97-PI-10,8 µg/mL
C=Cc1cn([C@@H]2O[C@H](CO)[C@@H](O)[C@@H]2O)c(=O)[nH]c1=O,,1 µg/mL,HELF,inhibition,plaque count,Varicella zoster virus,Ohtomo,100%
CC(C)(O)c1cn(-c2ccc([N+](=O)[O-])cc2)nn1,,2048 µg/mL,,inhibition,broth dilution,Candida albicans,URM 4260,0%
C=C/C(C)=C/[C@@]1(C)SC(=O)C(C)=C1O,,,,MIC,,Escherichia coli,UB1005/PEMR2.6,200 µM
CCc1nc2ccc(Cl)cn2c1C(=O)NCc1ccc(C2CCN(c3ccc(OCC4CC4)cn3)CC2)c(F)c1.Cl,,0.022 µM,,inhibition,fluorescence,Mycobacterium avium,,85%
O=c1oc2ccc(Br)cc2c(=S)n1-c1cccc(Cl)c1,21 d,,,MIC,,Mycobacterium kansasii,My 235/80,4 µM
C[C@H](Oc1ccc(-n2c(C(=O)NCc3ccccc3)c3n(c2=O)CCN(C(=O)c2ccc(Br)c(Cl)c2)C3)cc1)C(F)(F)F,,,HepG2.117,EC50,PCR,Hepatitis B virus,,0.5–5 µM
Cc1ccc(-n2c(=S)oc3ccc(Br)cc3c2=S)cc1,21 d,,,MIC,,Mycobacterium kansasii,My 235/80,4 µM
Cc1cn([C@@H]2O[C@H](CO)[C@@H](O)[C@@H]2F)c(=O)nc1N,,0.001 µg/mL,HELF,inhibition,plaque count,Varicella zoster virus,KANNO,0%
CCOC(=O)c1cnc(NCCCCNc2ccnc3cc(Cl)ccc23)nc1C,,,,MIC99,,Cryptococcus gattii,LMM 818,11.3 µg/mL
Cc1ccn2c(C(=O)NCc3ccc(C4CCN(c5ccc(OC(F)(F)F)cc5F)CC4)c(F)c3)c(C)nc2c1,,0.028 µM,,inhibition,fluorescence,Mycobacterium avium,,85%
N#Cc1cc([N+](=O)[O-])ccc1Oc1ccc(Cl)c(Cl)c1,,0.5 µg/mL,VERO,inhibition,plaque count,Coxsackie virus,TYPE B4,61.4%
Nc1nc2c(ncn2COC(CO)CO)c(=O)[nH]1,,,,EC95,virus yield,Human cytomegalovirus,C4 (D341E),1.8 µM
Cc1nc2cc(C(F)(F)F)ccn2c1C(=O)NCc1ccc(C2CCN(c3ccc(OC(F)(F)F)cc3)CC2)c(F)c1,,0.76 µM,,inhibition,fluorescence,Mycobacterium avium,,85%
Cc1ccc(-n2cc(C(C)(C)O)nn2)cc1C,,2048 µg/mL,,inhibition,broth dilution,Candida parapsilosis,URM 3624,0%
COc1ccc(-n2c(C(=O)NC3(CO)CC3)c3n(c2=O)CCN(C(=O)c2ccc(Cl)c(Cl)c2)C3)cc1,,,HepG2.117,EC50,PCR,Hepatitis B virus,,>5 µM
CCOC(=O)c1c(C)nc(NCCCCNc2ccnc3cc(Cl)ccc23)nc1-c1ccccc1[N+](=O)[O-],,,,MIC99,,Cryptococcus neoformans,C-3-1,2 µg/mL
CN(NC(=O)Nc1cc(C(F)(F)F)cc(C(F)(F)F)c1)C(=O)Nc1cc(C(F)(F)F)cc(C(F)(F)F)c1,,,,MIC,,Klebsiella pneumoniae,KL21,>300 µM
O=c1[nH]c(=O)n([C@@H]2O[C@H](CO)[C@@H](O)[C@@H]2O)cc1/C=C/Br,,0.0001 µg/mL,HELF,inhibition,plaque count,Varicella zoster virus,HIRAI,28%
O=C(Nc1cccc(C2=NCCN2)c1)Nc1cccc(C2=NCCN2)c1,,,,MIC,,Klebsiella pneumoniae,KL21,>300 µM
CO[C@H]1/C=C/O[C@@]2(C)Oc3c(C)c(O)c4c(O)c(c5c(c4c3C2=O)NC2(CCN(CC(C)C)CC2)N=5)=NC(=O)/C(C)=C\C=C\[C@H](C)[C@H](O)[C@@H](C)[C@@H](O)[C@@H](C)[C@H](OC(C)=O)[C@@H]1C,,,,MIC,,Mycobacterium avium intracellulare,9-Feb,1 µg/mL
CCO/N=C/c1ccc(OCCC2CCN(c3ccc(Cl)nn3)CC2)cc1,,,KB,EC50,neutral red,Rhinovirus,6258-CV44 (ICAM-1 receptor group 64),>7.474 µM
CC(C)(O)c1cn(-c2cccc3ccccc23)nn1,,2048 µg/mL,,inhibition,,Candida tropicalis,URM 4790,0%
CCCC(CCC)C(NC(C)=O)C1CC(C(=O)O)CC1N=C(N)N,,,MDCK,EC50,,Influenza A virus,Influenza A/Washington/05/96 (H3N2),0.01 µM
C[C@@H](NC(=O)c1c2n(c(=O)n1-c1ccc(OC3CC3)cc1)CCN(C(=O)c1ccc(Br)c(Cl)c1)C2)c1ccc(OC(C)(C)C(N)=O)cc1F,,,HepG2.117,EC50,PCR,Hepatitis B virus,,0.1–0.5 µM
CCC(CC)O[C@@H]1C=C(C(=O)O)C[C@H](N)[C@H]1NC(C)=O,,,MDCK,EC50,plaque count,Influenza A virus,H1N1 isolate C31C,≤0.03 µg/mL
CCCC(CCC)C(NC(C)=O)C1C(N=C(N)N)CC(C(=O)O)C1O,,,MDCK,EC50,,Influenza A virus,Influenza A/Beijing/32/92 (H3N2),0.05 µM
COc1ccn2nc(C)c(C(=O)NCc3ccc(N4C[C@H](C)N(c5ccc(OC(F)(F)F)cc5)C[C@H]4C)c(F)c3)c2c1.Cl,,0.031 µM,,inhibition,fluorescence,Mycobacterium avium,,85%
Nc1nc(=O)n([C@@H]2O[C@H](CO)[C@@H](O)[C@@H]2F)cc1I,,0.01 µg/mL,HELF,inhibition,plaque count,Varicella zoster virus,Kawaguchi,15%
Oc1ccccc1N=Cc1cccc(O)c1O,,,,MIC99,,Cryptococcus gattii,L-28/02,4 µg/mL
CC(C)(C)c1ccc(CSc2ncnc3c2ncn3[C@@H]2O[C@H](CO)[C@@H](O)[C@H]2O)cc1,,5 µM,,inhibition,,Toxoplasma gondii,RH (WILD TYPE),16.7%
S=c1oc2ccc(Br)cc2c(=S)n1-c1cccc(Cl)c1,14 d,,,MIC,,Mycobacterium kansasii,6509/96,2 µM
COc1ccc(-n2c(C(=O)NCc3ccc4ncccc4c3)c3n(c2=O)CCN(C(=O)c2ccc(Cl)c(Cl)c2)C3)cc1,,,HepG2.117,EC50,PCR,Hepatitis B virus,,0.5–5 µM
Nc1nc2c(ncn2COC(CO)CO)c(=O)[nH]1,,,MRC-5,EC50,hybridisation,Human cytomegalovirus,C9207,0.15 µM
Cc1ccc(-n2c(=O)oc3ccc(Br)cc3c2=S)cc1,14 d,,,MIC,,Mycobacterium kansasii,6509/96,2 µM
CCC(C)CC(C)CCCCCCCCC(=O)N[C@H]1C[C@@H](O)[C@H](NCCN)NC(=O)[C@@H]2[C@@H](O)CCN2C(=O)[C@H]([C@H](O)CCN)NC(=O)[C@H]([C@H](O)[C@@H](O)c2ccc(O)cc2)NC(=O)[C@@H]2C[C@@H](O)CN2C(=O)[C@H]([C@@H](C)O)NC1=O,,,,MIC,broth dilution,Cryptococcus gattii,CBS 11752,32 µg/mL
CC(C)Nc1nc2cc(Cl)c(Cl)cc2n1[C@H]1O[C@@H](CO)[C@H](O)[C@@H]1O,,,MRC-5,EC50,hybridisation,Human cytomegalovirus,8805REC1 (MET460VAL),0.03 µM
O=c1[nH]c(=O)n([C@@H]2O[C@H](CO)[C@@H](O)[C@@H]2O)cc1/C=C/Cl,,0.01 µg/mL,HELF,inhibition,plaque count,Varicella zoster virus,YS,100%
Cc1cc(CCCOc2c(C)cc(-c3noc(C(F)(F)F)n3)cc2C)on1,,,OHIO HELA-I,EC50,cytopathic effect / visual reading,Rhinovirus,Isolate 26,0.1 µg/mL
O=C(Nc1cc(C(F)(F)F)cc(C(F)(F)F)c1)NS(=O)(=O)c1ccc(OC(F)(F)F)cc1,,,,MIC,,Escherichia coli,ES142,>300 µM
Oc1ccc(O)c(C=Nc2ccccc2O)c1,,,,MIC,broth dilution,Cryptococcus neoformans,VM-MCMMPI,8 µg/mL
CCCCCCCCOC(=O)[C@]1(O)C[C@@H](O)[C@@H](O)[C@H](OC(=O)/C=C/c2ccc(O)c(O)c2)C1,,,,MIC80,absorbance,Aspergillus westerdijkiae,CBS 112803,2100 µM
C=CCc1ccc(OC)c(OC)c1,,,,MIC90,turbidity,Candida parapsilosis,218,350 µg/mL
CCC(O)CN(NC(=O)Nc1cc(C(F)(F)F)cc(C(F)(F)F)c1)C(=O)Nc1cc(C(F)(F)F)cc(C(F)(F)F)c1,,,,MIC,,Escherichia coli,ES142,>300 µM
CCc1nc2ccc(Cl)cn2c1C(=O)NCc1ccc(N2C[C@H](C)N(c3ccc(OC(F)(F)F)cc3)C[C@H]2C)c(F)c1,,0.011 µM,,inhibition,fluorescence,Mycobacterium avium,,85%
O=c1oc2ccc(Br)cc2c(=S)n1-c1ccccc1,21 d,,,MIC,,Mycobacterium kansasii,6509/96,2 µM
OC[C@H]1O[C@@H](n2cnc3c(SCc4ccc(OC(F)(F)F)cc4)ncnc32)[C@H](O)[C@@H]1O,,10 µM,,inhibition,,Toxoplasma gondii,RH adenosine kinase-deficient,0%
O=c1oc2ccc(Cl)cc2c(=S)n1-c1ccc(F)cc1,21 d,,,MIC,,Mycobacterium kansasii,6509/96,16 µM
CCC(CC)[C@H](NC(C)=O)[C@@H]1[C@H](O)[C@@H](C(=O)O)C[C@H]1N=C(N)N,,,MDCK,EC50,,Influenza A virus,H1N1 A/PR/8/34,1.5 µM

The last 7 rows once more:

compound,conditions,tested at,cells,measure,method,species,strain,value
C=CCc1ccc(OC)c(OC)c1,,,,MIC90,turbidity,Candida parapsilosis,218,350 µg/mL
CCC(O)CN(NC(=O)Nc1cc(C(F)(F)F)cc(C(F)(F)F)c1)C(=O)Nc1cc(C(F)(F)F)cc(C(F)(F)F)c1,,,,MIC,,Escherichia coli,ES142,>300 µM
CCc1nc2ccc(Cl)cn2c1C(=O)NCc1ccc(N2C[C@H](C)N(c3ccc(OC(F)(F)F)cc3)C[C@H]2C)c(F)c1,,0.011 µM,,inhibition,fluorescence,Mycobacterium avium,,85%
O=c1oc2ccc(Br)cc2c(=S)n1-c1ccccc1,21 d,,,MIC,,Mycobacterium kansasii,6509/96,2 µM
OC[C@H]1O[C@@H](n2cnc3c(SCc4ccc(OC(F)(F)F)cc4)ncnc32)[C@H](O)[C@@H]1O,,10 µM,,inhibition,,Toxoplasma gondii,RH adenosine kinase-deficient,0%
O=c1oc2ccc(Cl)cc2c(=S)n1-c1ccc(F)cc1,21 d,,,MIC,,Mycobacterium kansasii,6509/96,16 µM
CCC(CC)[C@H](NC(C)=O)[C@@H]1[C@H](O)[C@@H](C(=O)O)C[C@H]1N=C(N)N,,,MDCK,EC50,,Influenza A virus,H1N1 A/PR/8/34,1.5 µM